Measured values from several laboratories, pooled; numbers as filed in NIAID ChemDB.

All rows: whole-cell or culture tests; species: Hepatitis C virus; measure: EC50

Neighbouring rows are from separate reports. Blank or dashed fields: not listed here. ECn: concentration that inhibits the pathogen or its effect by n%.

smiles	strain or isolate	mutations	cell line	method	value
CC1CCC(C(=O)N(c2cc(C#CC(C)(C)C)sc2C(=O)O)C2CCC(O)CC2)CC1	GT4a		Huh7-Lunet	luciferase	2.275 µM
CNC(=O)c1c(-c2ccc(F)cc2)oc2cc(N(CCO)S(C)(=O)=O)c(C3CC3)cc12			Huh 9-13	PCR	>33 µM
COC(=O)CNC(=O)c1nn(Cc2cccc(NC(=O)c3ccc(F)cc3)c2)c2ccccc12	J399EM		Huh7.5.1	fluorescence	>10 µM
CC[C@H](C)C(=O)O[C@H]1C[C@H](O)C=C2C=C[C@H](C)C(CC[C@@H](O)C[C@H](O)CC(=O)O)[C@H]21			Huh 5-2	luciferase / replicon	>20 µM
CCOC(=O)CN(CC(N)=O)C(=O)CCN1C(=O)[C@H](C)C2CC[C@H](C)C3CC[C@]4(C)OO[C@]32C1O4			Huh 5-2	replicon	4 µM
COc1ccc2c(O[C@@H]3C[C@H]4C(=O)N[C@]5(C(=O)O)C[C@H]5/C=C\CCCCC[C@H](NC(=O)OC5CCCC5)C(=O)N4C3)cc(-c3csc(NC(C)C)n3)nc2c1			Huh 5-2	luciferase	>22 µM
C[C@H]1CCC2[C@@H](C)C(=O)N(CCC(=O)N(CO)CC(=O)NCc3ccccc3)C3O[C@]4(C)CCC1[C@@]23OO4			Huh 5-2	replicon	8 µM
O=C(O)c1cccc([As]=[As]c2cccc(C(=O)O)c2)c1	sg2a (JFH)		Huh7-1	PCR	0.5 µM
CC(=O)c1ccc(C(=O)Nc2cccc(Cn3nc(C(N)=O)c4ccccc43)c2)cc1	J399EM		Huh7.5.1	fluorescence	0.11 µM
C[C@@]1(O)[C@H](O)[C@@H](CO)O[C@H]1n1cnc2c(N)ncnc21	3a S52		Huh7 replicon	luciferase	0.091 µM
C[C@@]1(O)[C@H](O)[C@@H](CO)O[C@H]1c1ccc2c(N)ncnn12	GT1a		Huh7.5	PCR	0.76 µM
CC[C@H]1C[C@]1(NC(=O)[C@@H]1C[C@@H]2CN1C(=O)[C@H](C(C)(C)C)NC(=O)OCC(C)(C)CCCCc1cccc3c1CN(C3)C(=O)O2)C(=O)NS(=O)(=O)C1CC1	JCH2		Huh7.5	antigen	0.05 µM
Cc1cc(N2CCCCC2)nc2ccc(Cc3ccc4nc(N5CCCCC5)cc(C)c4c3)cc12	sg2a (JFH)		Huh7-1	PCR	5.4 µM
CCC[C@H](NC(=O)[C@@H]1[C@H]2CCC[C@H]2CN1C(=O)[C@@H](NC(=O)[C@@H](NC(=O)c1cnccn1)C1CCCCC1)C(C)(C)C)C(=O)C(=O)NC1CC1			Huh 5-2	luciferase	>24 µM
C[C@@]1(O)[C@H](O)[C@@H](CO)O[C@H]1n1cnc2c(N)ncnc21	GT5a		Huh7-Lunet	luciferase	0.095 µM
NC(=O)c1nn(Cc2cccc(NC(=O)c3ccc(C(F)(F)F)cc3)c2)c2ccccc12	J399EM		Huh7.5.1	fluorescence	0.044 µM
COc1ccc2c(O[C@@H]3C[C@H]4C(=O)N[C@]5(C(=O)O)C[C@H]5/C=C\CCCCC[C@H](NC(=O)OC5CCCC5)C(=O)N4C3)cc(-c3csc(NC(C)C)n3)nc2c1	Con1		1C	luciferase	0.00061 µM
Cc1ccc(S(=O)(=O)CNC(=O)CN(CC(C)C)C(=O)CCN2C(=O)[C@H](C)C3CC[C@H](C)C4CC[C@]5(C)OO[C@]43C2O5)cc1			Huh 5-2	replicon	3 µM
Fc1ccccc1-c1nc2ccn(Cc3ccc(-c4ccc(C(F)(F)F)cc4C(F)(F)F)nn3)cc-2n1	GT3a	P89L K583E	1C	luciferase	0.059 µM
C[C@@]1(O)[C@H](O)[C@@H](CO)O[C@H]1n1cnc2c(N)ncnc21	3a		Huh7	luciferase	0.2993 µM
CC(C)OC(=O)[C@H](C)N[P@](=O)(OC[C@H]1O[C@@](C#N)(c2ccc3c(N)ncnn23)[C@](C)(O)[C@@H]1OC(=O)C(C)C)Oc1ccccc1	5a		Huh7 replicon	luciferase	0.14 µM
CCC[C@H](NC(=O)[C@@H]1[C@H]2CCC[C@H]2CN1C(=O)[C@@H](NC(=O)[C@@H](NC(=O)c1cnccn1)C1CCCCC1)C(C)(C)C)C(=O)C(=O)NC1CC1	NZL1		Huh7.5	antigen	4.959 µM
C[C@H]1CCC2[C@@H](C)C(=O)N(CCC(=O)N(CC=O)CC(=O)NC3CCCCC3)C3OC4(C)CCC1[C@@]23OO4			Huh 5-2	replicon	7 µM
CN(Cc1cc(C(C)(C)C)cc(Br)c1O)Cc1cc(C(C)(C)C)cc(Br)c1O	JFH-1		Huh7-1	PCR	1.8 µM
Fc1ccccc1-c1nc2ccn(Cc3ccc(-c4ccc(C(F)(F)F)cc4C(F)(F)F)nn3)cc-2n1	3a		Huh7	luciferase	1.382 µM
COc1ccc2c(O[C@@H]3C[C@H]4C(=O)N[C@]5(C(=O)O)C[C@H]5/C=C\CCCCC[C@H](NC(=O)OC5CCCC5)C(=O)N4C3)cc(-c3csc(NC(C)C)n3)nc2c1	GT1b		1C	luciferase	0.00091 µM
CNC(=O)c1c(-c2ccc(F)cc2)oc2cc(N(CCO)S(C)(=O)=O)c(C3CC3)cc12	1b		Huh7	luciferase	0.0085 µM
C[C@@]1(O)[C@H](O)[C@@H](CO)O[C@H]1n1ccc(N)nc1=O			HuH6	replicon	0.7 µM
CCC[C@H](NC(=O)[C@@H]1[C@H]2CCC[C@H]2CN1C(=O)[C@@H](NC(=O)[C@@H](NC(=O)c1cnccn1)C1CCCCC1)C(C)(C)C)C(=O)C(=O)NC1CC1	genotype 1b	P58L	Huh7.5	luciferase / reporter gene	0.2565 µM
C=C[C@@H]1C[C@]1(NC(=O)[C@@H]1C[C@@H](Oc2nccc3ccc(Br)cc23)CN1C(C)=O)C(=O)NS(=O)(=O)C1CC1	1b WT			luciferase	>3 µM
CC(C)OC(=O)[C@H](C)N[P@](=O)(OCC1O[C@@H](n2ccc(=O)[nH]c2=O)[C@](C)(F)[C@@H]1O)Oc1ccccc1	GT1b		1C	luciferase	0.04 µM
COc1ccc(C(=O)Nc2cccc(Cn3nc(C(N)=O)c4ccccc43)c2)cc1	J399EM		Huh7.5.1	fluorescence	0.035 µM
CCCCN(CC(=O)NCS(=O)(=O)c1ccc(C)cc1)C(=O)CCN1C(=O)[C@H](C)C2CC[C@H](C)C3CC[C@]4(C)OO[C@]32C1O4			Huh 5-2	replicon	>70 µM
CC1=CC[C@H](C(=O)N(c2cc(C#CC(C)(C)C)sc2C(=O)O)C2CCC(O)(CO[C@H]3CCOC3)CC2)CC1	GT3a	P89L K583E	1C	luciferase	0.221 µM
O=C1OC2(c3ccc(O)cc3Oc3cc(O)ccc32)c2c1c(-c1ccccc1)c(-c1ccccc1)c(-c1ccccc1)c2-c1ccccc1	sg1a (H77)		Huh7-1	PCR	6.9 µM

For reference, 5 entries again:

smiles	strain or isolate	mutations	cell line	method	value
COc1ccc2c(O[C@@H]3C[C@H]4C(=O)N[C@]5(C(=O)O)C[C@H]5/C=C\CCCCC[C@H](NC(=O)OC5CCCC5)C(=O)N4C3)cc(-c3csc(NC(C)C)n3)nc2c1	GT1b		1C	luciferase	0.00091 µM
CC(C)OC(=O)[C@H](C)N[P@](=O)(OC[C@H]1O[C@@](C#N)(c2ccc3c(N)ncnn23)[C@](C)(O)[C@@H]1OC(=O)C(C)C)Oc1ccccc1	5a		Huh7 replicon	luciferase	0.14 µM
CNC(=O)c1c(-c2ccc(F)cc2)oc2cc(N(CCO)S(C)(=O)=O)c(C3CC3)cc12	1b		Huh7	luciferase	0.0085 µM
CC(C)OC(=O)[C@H](C)N[P@](=O)(OCC1O[C@@H](n2ccc(=O)[nH]c2=O)[C@](C)(F)[C@@H]1O)Oc1ccccc1	GT1b		1C	luciferase	0.04 µM
COC(=O)CNC(=O)c1nn(Cc2cccc(NC(=O)c3ccc(F)cc3)c2)c2ccccc12	J399EM		Huh7.5.1	fluorescence	>10 µM